The series is filed under the species Mus musculus. The series can be described thus: Toxicity in mouse allografted with mouse L1210 cells. In kind it is organism-based.
Molecule `C[As](C)SC(C)(C)C(N)C(=O)O` (stereo not drawn) yielded an Activity of 50 mg/kg.

Molecule `C[As](C)SC(C)(C)C(N)C(=O)O.Cl` (stereo not drawn) showed an Activity of 100 mg/kg.

Take `C[As](C)Sc1ncnc2[nH]cnc12`: the Activity is 50 mg/kg.

(Values after ChEMBL document CHEMBL3243964, “Biomolecules bearing the S- or SeAsMe2 function: amino acid and steroid derivatives” (J Med Chem, 1979).)
